Compound potency records, mixed from different reports. Data source: NIAID ChemDB in PubChem.

Common to all: tests in culture; organism: HIV-1

Blank or dashed fields: not listed here. Rows are shuffled and stem from different studies. ECn is the concentration giving n% inhibition of infection, replication or growth.

structure	read by	cells	mutations	conditions	strain	read-out	result
Cc1cn([C@H]2C=C[C@@H](CO)O2)c(=O)[nH]c1=O	-	Primary T lymphocytes	+Vpx	-	NL4-3	EC50	>5 µM
CC(C)CN(C[C@@H](O)[C@H](Cc1ccccc1)NC(=O)O[C@H]1CO[C@H]2OCC(F)(F)[C@H]21)S(=O)(=O)c1ccc(N)cc1	-	PBMC	L10I K14R L33I M36I M46I F53I K55R I62V L63P A71V G73S V82A L90M I93L	clinical isolate, multidrug-resistant	Clinical isolate	EC50	0.011 µM
Cc1cc(C#Cc2cccc(N)c2)cc(C)c1Oc1ccnc(Nc2ccc(C#N)cc2)n1	MTT	MT-4	RES056	-	IIIB	EC50	>5.005 µM
C[C@H](Cn1cnc2c(N)ncnc21)OCP(=O)(O)O	-	Primary T lymphocytes	-	-	NL4-3	EC50	1.949 µM
Cc1cn([C@@H]2O[C@H](CO[Si](C)(C)C(C)(C)C)C3(OS(=O)(=O)C=C3N)[C@H]2O[Si](C)(C)C(C)(C)C)c(=O)n(C)c1=O	p24	CEM	RT-M184V	-	IIIB	EC50	0.019 µg/mL
CC(C)(c1ncc(-c2ccc(F)cc2)o1)N1CCN(C[C@@H](O)C[C@@H](Cc2nnco2)C(=O)N[C@H]2c3ccccc3OC[C@H]2O)[C@H](C(=O)NCC(F)(F)F)C1	p24	MT-4	PR-L10I M36I N37D M46I R57K L63P A71V G73S I84V L90M I93L	-	V-18 Clinical isolate	EC50	<0.125 µM
Cc1occc1C(=S)Nc1ccc(Cl)c(/C=N/OC(C)(C)C)c1	p24	CEM	RT-D67N K70R T215F K219Q	-	RTMC (RT D67N K70R T215F K219Q)	EC50	0.025 µg/mL
Cc1ccnc2c1NC(=O)c1cccnc1N2C1CC1	MTT	MT-4	-	-	IIIB	EC50	0.118 µM
Cc1nnc(C(=O)NC(C)(C)c2nc(C(=O)NCc3ccc(F)cc3)c(O)c(=O)n2C)o1	-	MDM	+Vpx	-	NL4-3	EC50	0.031 µM
CCc1cc(NCc2nc3c(Cl)ccc(Cl)c3o2)c(=O)[nH]c1C	cytopathic effect / XTT	CEM + CEM-SS	RT-Y181C	-	UC38-R(RT-Y181C	EC50	13.8 µM
CCCc1nnc(C[C@H](C[C@H](O)CN2CCN(C(C)(C)c3ncc(-c4cncc(OC)c4)o3)C[C@H]2C(=O)NCC(F)(F)F)C(=O)N[C@H]2c3ccccc3OC[C@H]2O)o1	p24	MT-4	PR-L10I M46I I54V Q58E L63P I64V V77I V82F I84V L90M I93L	-	K-60 Clinical isolate	EC50	<0.5 µM
[NH4+]	antigen	MT-4	-	-	GUN1	EC50	>100 µg/mL
COc1ccc(S(=O)(=O)N(CC(C)C)C[C@@H](O)[C@H](Cc2ccccc2)NC(=O)O[C@H]2CO[C@H]3OCC(F)(F)[C@H]32)cc1	-	MT-4	-	-	NL4-3	EC50	0.0005 µM
CC(C)=CCN1Cc2cc(Cl)cc3[nH]c(=S)n(c23)C[C@@H]1C	p24	CEM	RT-D67N K70R T215F K219Q	-	RTMC (RT D67N K70R T215F K219Q)	EC50	0.075 µg/mL
CC(C)CN(C[C@@H](O)[C@H](Cc1ccccc1)NC(=O)O[C@H]1CCOC1)S(=O)(=O)c1ccc(N)cc1	p24	MT-4	PR-N88D	-	NL4-3	EC90	0.02 µM
COC(=O)N[C@H](C(=O)N[C@@H](Cc1ccccc1)[C@@H](O)CN(Cc1ccc(-c2ccccn2)cc1)NC(=O)[C@@H](NC(=O)OC)C(C)(C)C)C(C)(C)C	-	MT-4	M46I I50V N38K M36I GRL05010-resistant	-	NL4-3	EC50	0.095 µM
Cc1cn([C@H]2C[C@H](N=[N+]=[N-])[C@@H](CO)O2)c(=O)[nH]c1=O	MTT	MT-4	L100I	-	IIIB	EC50	0.005 µM
Cc1nnc(C[C@H](C[C@H](O)CN2CCN(Cc3ccc(-c4ccc(Cl)cc4)o3)C[C@H]2C(=O)NCC(F)(F)F)C(=O)N[C@H]2c3ccccc3OC[C@H]2O)o1	p24	MT-4	PR-L10I M46I I54V Q58E L63P I64V V77I V82F I84V L90M I93L	-	K-60 Clinical isolate	EC95	0.031 µM
C1CNCCNCCCN(CCCN2CCCNCCNCCCNCC2)CCNC1	antigen	HuT-78 + HUT 78	-	-	IIIB	EC50	0.99 µM
CC(C)(c1ncc(-c2ccc(Cl)cc2)o1)N1CCN(C[C@@H](O)C[C@@H](Cc2nnco2)C(=O)N[C@H]2c3ccccc3OC[C@H]2O)[C@H](C(=O)NCC(F)(F)F)C1	p24	MT-4	PR-L10I M46I I54V Q58E L63P I64V V77I V82F I84V L90M I93L	-	K-60 Clinical isolate	EC95	0.063 µM
COc1ccc2c(c1)N(C(=O)OC(C)C)[C@@H](CSC)C(=S)N2	p24	CEM	RT-M184I	-	IIIB	EC50	0.001 µg/mL
CCCc1nnc(C[C@H](C[C@H](O)CN2CCN(Cc3ccc(-c4ccc(Cl)cc4)o3)C[C@H]2C(=O)NCC(F)(F)F)C(=O)N[C@H]2c3ccccc3OC[C@H]2O)o1	p24	MT-4	PR-L10I N37S R41K M46I I54V I62V L63P A71V V77I V82A L90M I93L	-	Q-60 Clinical isolate	EC50	<0.016 µM
O=c1[nH]cnc2c1ncn2[C@H]1CC[C@@H](CO)O1	-	MT-4	+Vpx	-	NL4-3	EC50	2.692 µM
CC(C)(c1ncc(-c2ccc(F)cc2)o1)N1CCN(C[C@@H](O)C[C@@H](Cc2nnc(-c3ccccc3)o2)C(=O)N[C@H]2c3ccccc3OC[C@H]2O)[C@H](C(=O)NCC(F)(F)F)C1	p24	MT-4	-	-	NL4-3 WT	EC95	≤0.008 µM
Cc1cn([C@H]2C[C@H](N=[N+]=[N-])[C@@H](CO)O2)c(=O)[nH]c1=O	cytopathic effect / XTT	C-344	-	-	RF	EC50	0.25 µM
C1CNCCNCCCN[C@H]([C@@H]2CNCCCNCCNCCCN2)CNC1	p24 / ELISA	PBL	-	-	IIIB	EC90	3.77 µM
Cc1nnc(C[C@H](C[C@H](O)CN2CCN(C(C)(C)c3ncc(-c4ccc(Cl)cc4)o3)C[C@H]2C(=O)NCC(F)(F)F)C(=O)N[C@H]2c3ccccc3OC[C@H]2O)o1	p24	MT-4	PR-L10I N37S R41K M46I I54V I62V L63P A71V V77I V82A L90M I93L	-	Q-60 Clinical isolate	EC95	≤0.008 µM
Cc1cc(C#Cc2cccc(N)c2)cc(C)c1Oc1ccnc(NC2CCN(Cc3ccc(C#N)cc3)CC2)n1	MTT	MT-4	Y188L	-	IIIB	EC50	>0.261 µM